Protein sequences, listed by entry. Tags and fused reporters are not part of them. Residues count along the entry.
UniProt P26313, 252-485 limits assumed: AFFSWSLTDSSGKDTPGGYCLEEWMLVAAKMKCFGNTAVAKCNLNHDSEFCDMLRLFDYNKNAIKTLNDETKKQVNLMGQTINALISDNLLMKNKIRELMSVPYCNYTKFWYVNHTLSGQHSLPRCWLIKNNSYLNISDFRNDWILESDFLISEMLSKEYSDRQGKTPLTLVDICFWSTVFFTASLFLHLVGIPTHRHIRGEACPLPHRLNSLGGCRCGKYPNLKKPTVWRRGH
UniProt P26313, 59-251 partner limits assumed: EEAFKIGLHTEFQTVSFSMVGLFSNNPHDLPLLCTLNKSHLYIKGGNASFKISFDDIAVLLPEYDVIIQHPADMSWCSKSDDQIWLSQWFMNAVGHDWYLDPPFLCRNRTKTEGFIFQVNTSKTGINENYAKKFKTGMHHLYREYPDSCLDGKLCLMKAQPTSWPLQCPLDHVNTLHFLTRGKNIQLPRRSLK
UniProt P26313, 2-58 limits assumed: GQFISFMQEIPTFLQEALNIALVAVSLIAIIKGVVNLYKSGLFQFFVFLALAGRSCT

In patent publication US9115065B2 (priority 2004, dated 2015):

What was measured:
[1] = in vivo
[2] = molecular target: JUNV GPC (Junin mammarenavirus, UniProt P26313); type: cell-based, Junin virus; conditions: pH 5; read-out: EC50 of inhibition of JUNV GPC-mediated cell-cell fusion

In the case of “N-2-(1,1,1,3,3,3-hexafluoro-1-methylpropyl)-2-[(4-difluoromethoxyphenyl)sulfonyl]hydrazine-1-carboxamide [ST-294]”, the “PK (rat/oral) bioavailability (F)” value [1] is reported as 68.2% and the EC50 [2] is reported as 1500 nM.
